{"source": "patent US20050202001A1", "about": "(priority 2002, published 2005)", "key": {"[1]": {"tested_on": "UACC-257 melanoma cells", "test": "Melanin content (A405/A280) in UACC-257 melanoma cells", "type": "cell-based, human", "conditions": "UACC-257, agent alone, 72 hours after treatment; toxins 0.1 μg/ml each, PD98059 20 μM, IBMX 200 μM (FIG. 2A)"}, "[2]": {"tested_on": "MALME-3M melanoma cells", "test": "Melanin content (A405/A280) in MALME-3M melanoma cells", "type": "cell-based, human", "conditions": "agent alone, 72 hours after treatment, toxins 0.1 μg/ml each, PD98059 20 μM, IBMX 200 μM (FIG. 2B)"}}}
{"smiles": "COc1cccc(-c2cc(=O)c3ccccc3o2)c1N", "note": "[PD98059]", "values": [{"measurement": "melanin production", "setting": "[1]", "result": "dramatic increase in melanin production"}, {"measurement": "melanin production", "setting": "[2]", "result": "dramatic increase in melanin production"}]}
